Reference: PMC6222509, “Dibasic Derivatives of Phenylcarbamic Acid against Mycobacterial Strains: Old Drugs and New Tricks?” (Molecules : A Journal of Synthetic Chemistry and Natural …, 2018)
In brackets after ≈: the same amount, converted by molar mass. Where two headings read alike, the source gives them in different places.

Tests used:
[1] = test system: M. kansasii 6509/96 clinical isolate (MK 6509/96); test: microbe, parasite or virus in culture; conditions: Mycobacterium kansasii
[2] = test system: M. kansasii 6509/96 clinical isolate (MK 6509/96)
[3] = 168 h, read-out: MIC MK 6509/96 7-d, 7-day cultivation
[4] = 336 h, read-out: MIC MK 6509/96 14-d, 14-day cultivation
[5] = 504 h, read-out: MIC MK 6509/96 21-d, 21-day cultivation
[6] = 168 h, read-out: MIC MK 6509/96 7-d
[7] = 336 h, read-out: MIC MK 6509/96 14-d
[8] = 504 h, read-out: MIC MK 6509/96 21-d

CCCCCOc1ccccc1NC(=O)OC(CN(CCC)CCC)CN1CCCC1 (stereo not shown) [1b]
MIC [1, 3]: 32 µM (≈ 13.9 µg/mL) | MIC [1, 4]: 32 µM (≈ 13.9 µg/mL) | MIC [1, 5]: 62.5 µM (≈ 27.1 µg/mL)

CCCCCCOc1cccc(NC(=O)OC(CN(CCC)CCC)CN2CCCC2)c1 (stereo not shown) [1g]
MIC [1, 3]: 8 µM (≈ 3.58 µg/mL) | MIC [1, 4]: 8 µM (≈ 3.58 µg/mL) | MIC [1, 5]: 16 µM (≈ 7.16 µg/mL)

CCCCOc1ccccc1NC(=O)OC(CN(CCC)CCC)CN1CCCCCC1 (stereo not shown) [1i]
MIC [1, 3]: 16 µM (≈ 7.16 µg/mL) | MIC [1, 4]: 32 µM (≈ 14.3 µg/mL) | MIC [1, 5]: 32 µM (≈ 14.3 µg/mL)

CCCCCCCOc1cccc(NC(=O)OC(CN(CCC)CCC)CN2CCCCCC2)c1.Cl.Cl (stereo not shown) [1p, 1-[2-[({[3-(heptyloxy)phenyl]amino}carbonyl)-oxy]-3-(dipropylammonio)propyl]azepanium dichloride]
MIC MK 6509/96 7-d ([2]; 7-day cultivation): 4 µM | MIC MK 6509/96 14-d ([2]; 14-day cultivation): 8 µM | MIC MK 6509/96 21-d ([2]; 21-day cultivation): 8 µM

CCCCOc1cccc(NC(=O)OC(CN(CCC)CCC)CN2CCCCCC2)c1 (stereo not shown) [1m]
MIC [1, 3]: 8 µM (≈ 3.58 µg/mL) | MIC [1, 4]: 16 µM (≈ 7.16 µg/mL) | MIC [1, 5]: 16 µM (≈ 7.16 µg/mL)

CCCCCCOc1ccccc1NC(=O)OC(CN(CCC)CCC)CN1CCCCCC1 (stereo not shown) [1k]
MIC [1, 3]: 16 µM (≈ 7.61 µg/mL) | MIC [1, 4]: 32 µM (≈ 15.2 µg/mL) | MIC [1, 5]: 32 µM (≈ 15.2 µg/mL)

CCCCOc1cccc(NC(=O)OC(CN(CCC)CCC)CN2CCCC2)c1 (stereo not shown) [1e]
MIC [1, 3]: 16 µM (≈ 6.71 µg/mL) | MIC [1, 4]: 16 µM (≈ 6.71 µg/mL) | MIC [1, 5]: 32 µM (≈ 13.4 µg/mL)

CCCCCCOc1cccc(NC(=O)OC(CN(CCC)CCC)CN2CCCCCC2)c1.Cl.Cl (stereo not shown) [1o, 1-[2-[({[3-(hexyloxy)phenyl]amino}-carbonyl)oxy]-3-(dipropylammonio)propyl]azepanium dichloride]
MIC [1, 6]: 4 µM | MIC [1, 7]: 8 µM | MIC [1, 8]: 8 µM

CC1COc2c(N3CCN(C)CC3)c(F)cc3c(=O)c(C(=O)O)cn1c23 (stereo not shown) [OFLX, ofloxacin, reference compound]
MIC [1, 3]: 0.5 µM (≈ 0.181 µg/mL) | MIC [1, 4]: 0.5 µM (≈ 0.181 µg/mL) | MIC [1, 5]: 1 µM (≈ 0.361 µg/mL)

CCCCCOc1ccccc1NC(=O)OC(CN(CCC)CCC)CN1CCCCCC1.O=C(O)C(=O)O (stereo not shown) [1j, 1-[2-[({[2-(Pentyloxy)phenyl]amino}carbonyl)oxy]-3-(dipropylammonio)propyl]-azepanium oxalate]
MIC [1, 6]: 16 µM | MIC [1, 7]: 32 µM | MIC [1, 8]: 32 µM

CCCCCCOc1ccccc1NC(=O)OC(CN(CCC)CCC)CN1CCCC1 (stereo not shown) [1c]
MIC [1, 3]: 16 µM (≈ 7.16 µg/mL) | MIC [1, 4]: 16 µM (≈ 7.16 µg/mL) | MIC [1, 5]: 16 µM (≈ 7.16 µg/mL)

CCCCCOc1cccc(NC(=O)OC(CN(CCC)CCC)CN2CCCC2)c1.Cl.Cl (stereo not shown) [1f, 1-[2-[({[3-(pentyloxy)phenyl]amino}carbonyl)oxy]-3-(dipropylammonio)propyl]-pyrrolidinium dichloride]
MIC [1, 6]: 8 µM | MIC [1, 7]: 16 µM | MIC [1, 8]: 16 µM

CC[C@@H](CO)NCCN[C@@H](CC)CO [EMB, ethambutol, reference compound]
MIC [1, 3]: 1 µM (≈ 0.204 µg/mL) | MIC [1, 4]: 2 µM (≈ 0.409 µg/mL) | MIC [1, 5]: 2 µM (≈ 0.409 µg/mL)

CCCCCOc1cccc(NC(=O)OC(CN(CCC)CCC)CN2CCCCCC2)c1.Cl.Cl (stereo not shown) [1n, 1-[2-[({[3-(pentyloxy)phenyl]amino}carbonyl)oxy]-3-(di-propylammonio)propyl]azepanium dichloride]
MIC [1, 6]: 4 µM | MIC [1, 7]: 8 µM | MIC [1, 8]: 8 µM

NNC(=O)c1ccncc1 [INH, isoniazid, reference compound]
MIC [1, 3]: 2 µM (≈ 0.274 µg/mL) | MIC [1, 4]: 4 µM (≈ 0.549 µg/mL) | MIC [1, 5]: 8 µM (≈ 1.1 µg/mL) | MIC ([1]; read-out: MIC MK 6509/96, over 7-d to 21-d cultivation, time not given): 2 to 8 µM (≈ 0.274 to 1.1 µg/mL)

CCCCCCCOc1ccccc1NC(=O)OC(CN(CCC)CCC)CN1CCCC1.Cl.Cl (stereo not shown) [1d, 1-[2-[({[2-(heptyl-oxy)phenyl]amino}carbonyl)oxy]-3-(dipropylammonio)propyl]pyrrolidinium dichloride]
MIC [1, 6]: 8 µM | MIC [1, 7]: 16 µM | MIC [1, 8]: 16 µM

CCCCCCCOc1cccc(NC(=O)OC(CN(CCC)CCC)CN2CCCC2)c1.Cl.Cl (stereo not shown) [1h, 1-[2-[({[3-(heptyloxy)phenyl]amino}carbonyl)oxy]-3-(dipropylammonio)propyl]pyrrolidinium dichloride]
MIC [1, 6]: 4 µM | MIC [1, 7]: 4 µM | MIC [1, 8]: 8 µM

CCCCOc1ccccc1NC(=O)OC(CN(CCC)CCC)CN1CCCC1 (stereo not shown) [1a]
MIC [1, 3]: 32 µM (≈ 13.4 µg/mL) | MIC [1, 4]: 62.5 µM (≈ 26.2 µg/mL) | MIC [1, 5]: 62.5 µM (≈ 26.2 µg/mL)
